This series has as its system Escherichia coli dsDNA. Put plainly: Small Angle X-ray Scattering (SAXS) of peptide-dsDNA complexes. It counts as binding. On the procedure: The peaks correspond to a rhombic columnar lattice with inter dsDNA spacing, d=4.0 nm, and tilt angle, γ=104.6°. To facilitate visualization, spectra were manually offset vertically by a multiplicative factor.
Double stranded DNA (dsDNA) is an example of a PAMP that is readily available in the gastrointestinal tract (e.g., from food or the gut microbiome). To assess the ability of gluten derived peptide gld-1 to bind dsDNA, Escherichia coli dsDNA was incubated with gld-1, and the formation of an ordered dsDNA-gld-1 complex was assessed.
Small Angle X-ray Scattering (SAXS) measurements of the complex produced Bragg reflections at q10=1.61 and q11=2.55 nm^−1.
Genomic E. coli dsDNA was incubated with gld-2 and gld-3 to test the formation of an ordered dsDNA-peptide complex.

The mark [1] stands for this setting: rhombic columnar lattice of peptide-dsDNA complex.

On to “LWQIPEQSRCQAIHNVVHA (listed as Triticum aestivum) [gld-1]”, for which, under “SAXS of dsDNA-gld-1 complex”, the “Bragg reflection q10” value was 1.61 nm⁻¹ and the “Bragg reflection q11” value was found to be 2.55 nm⁻¹. Under setting [1], the “inter dsDNA spacing, d” value came to 4.0 nm and the “tilt angle, γ” value is given as 104.6 °.

(Values after patent US20240287533A1, “GLUTEN MODIFICATION” (The Regents of the University of California, priority 2021, published 2024).)
